The target of series [1] is T1, recombinant HIV-1 RT K103N/E478Q (Human immunodeficiency virus type 1 group M subtype B, UniProt P03366, E1077Q/K702N).
T1 construct: performed by recombinant HIV-1 RT:s with defined
The conditions noted are these: immobilised primer/template, binding 90 min at 33° C., read-out: Inhibition of binding to template/primer (BIC50). The protocol: (§1) (iii) Protocol for RT binding inhibition (BIC) assay: The study was performed in a modified DNA polymerase assay. The inhibitors were serially diluted in five steps, enzyme dilution was added and the enzyme/inhibitor mixtures were incubated for 30 minutes at 33° C. Aliquots of the enzyme/inhibitor mixture were transferred to each well of a microtiter plate containing either immobilised primer, or primer/template. The enzyme was allowed to bind to the immobilised polymer for 90 min at 33° C. The amount of RT used was standardised to an activity corresponding to 40-60 pg (3.3-5.0×10^−16 mol) reference HIV-1 RT per well. The plates were then washed to remove unbound enzyme whereupon the amount of bound enzyme was determined by addition of the appropriate reaction solution for polymerisation (i e a reaction solution devoid of primer for studies of primer binding and a reaction solution devoid of both primer and template for studies of binding to primed template). The polymerase reaction was allowed to proceed for 3 hours at 33° C., whereupon the reaction was terminated by a wash of the plate.
(§2) The capacity of the indicated substances to inhibit the binding to primer or to primed DNA template of a panel of recombinant HIV 1 subtype B RTs was studied according to “Protocol for RT binding inhibition (BIC) assay” (protocol (iii) above).

Series [2] addresses T2, recombinant HIV-1 RT L100I (Human immunodeficiency virus type 1 group M subtype B, UniProt P03366, L699I).
T2 construct: performed by recombinant HIV-1 RT:s with defined
The note with it: immobilised primer/template, binding 90 min at 33° C., read-out: Inhibition of binding to template/primer (BIC50). The protocol:
as §1, §2

Consider “substance 199: 35-mer RNA molecule having the sequence set out in SEQ ID NO:5; similar to SEQ ID NO:4 with some naturally occurring nucleotide derivatives (GCUCAGNCGGNAGAGCANCAGACUUUUAANCUGAN; RNA, backbone, methylation of C and the base at N not given here; naturally occurring modified nucleosides at n positions)”, for which the IC50 in series [1] and in series [2] was 16 nM throughout.

The record behind these values is patent US20040053872A1, “New sequences” (priority 2000, published 2004).
